PubChem BioAssay AID504761, Drosophila RNAi Screening Center | 2011

Aim: 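Insect host genes that dengue virus relies on to spread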 (primary screen)
Cell system: D.Mel-2 cells from Drosophila
Reagent: long dsRNA against Drosophila genes
Challenge: infection with dengue virus type 2; dose and infection time not stated
Detection: 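Cells stained for dengue envelope protein and imaged; percent of infected cells per well on duplicate plates, ranked by infection, with stained nuclei counted for cell number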
Reading the numbers: infection score: higher = more virus-infected cells; cell count: higher = more cells in the well
Hit rule: 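Low infection ranks in the two replicates (chance level up to 0.065) followed by a retest with a 1.5-fold or larger significant decrease, p below 0.05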
Calls: active = confirmed: knock-down lowers infection; inactive = not picked or not confirmed
The screen tested about 22,000 reagents; this is an unselected part of those that have a named target and a result. Over the whole deposit, 116 (0.52%) are marked active. 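Calls depend on retest data that are not deposited; infection was ranked per plate without normalising between plates; the unit of the infection score is not given.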 Raw values are not corrected between plates. Not stated in the record: the amount of reagent, the time to read-out.

The opening 2 entries, to show the layout:
target,amplicon,"infection score, replicate 1","infection score, replicate 2","cell count, replicate 1","cell count, replicate 2",outcome
Diap1,DRSC11404,,0.33,70,608,inactive
Rsph4a,DRSC04338,20.7,37.4,6153,4352,inactive

The listing, repeating the preview:
target,amplicon,"infection score, replicate 1","infection score, replicate 2","cell count, replicate 1","cell count, replicate 2",outcome
Diap1,DRSC11404,,0.33,70,608,inactive
Rsph4a,DRSC04338,20.7,37.4,6153,4352,inactive
Rsph4a,DRSC28287,10.8,1.47,2448,475,inactive
Hsepi,DRSC04986,13,8.99,5415,5884,inactive
Hsepi,DRSC26089,16.6,5.92,5217,6550,inactive
Cpr30F,DRSC02908,11.4,6.97,6290,6274,inactive
Cpr30F,DRSC25531,3.93,4.31,6239,6082,inactive
BHD,DRSC11017,5.32,4.23,6035,6244,inactive
BHD,DRSC22833,2.29,28.6,5673,3802,inactive
BHD,DRSC27469,13,19.1,4928,5245,inactive
Vha26,DRSC12371,7.09,9.67,1551,4755,inactive
Vha26,DRSC25503,2.04,1.02,5108,5007,inactive
CG34229,DRSC06316,3.72,5.55,6429,6286,inactive
Atg18a,DRSC10943,4.65,4.56,6522,6512,inactive
CG10470,DRSC02061,3.36,1.91,6188,6582,inactive
CG30376,DRSC05086,3.49,3.07,5906,5445,inactive
CG7497,DRSC10857,11.8,16.2,6077,6328,inactive
CG7497,DRSC28188,4.01,10.1,6886,5604,inactive
Pp4-19C,DRSC20559,3.24,8.77,4223,3476,inactive
Pp4-19C,DRSC21251,6.05,6.17,3898,4115,inactive
Pp4-19C,DRSC23319,5.13,11.2,5943,6473,inactive
Pp4-19C,DRSC26053,8.86,7.75,5486,5742,inactive
Erk7,DRSC18127,5.37,8.42,6182,6742,inactive
Erk7,DRSC18227,6.23,18.7,6343,6233,inactive
Erk7,DRSC21895,12.8,38.9,7125,5144,inactive
